Source: patent publication US7504203B2 (priority 2002, dated 2009)

Molecular target: GST-fused SCDH enzyme expressed from the resistant strain cDNA (Pyricularia oryzae, UniProt P56221, V75M)
Conditions: FIG. 9

| Compound | resistance of the GST-fused SCDH enzyme to the inhibitor |
| --- | --- |
| CC(NC(=O)C(C#N)C(C)(C)C)c1ccc(Cl)cc1Cl (centres unmarked) | show resistance |
| 1-(2,4-dichlorophenyl)oxy-N-(1-cyano-1,2-dimethyl)propylethanecarboxamide | show resistance |
